Legend:
Experiment in all cases: purified protein
[1] = tested on: NC(=O)c1ccc[n+]([C@@H]2O[C@H](COP(=O)(O)OP(=O)(O)OC[C@H]3O[C@@H](n4cnc5c(N)ncnc54)[C@H](O)[C@@H]3O)[C@@H](O)[C@H]2O)c1; details: pH 9.0; varied: cofactor
O=C(O)CC(=O)C(=O)O = details: pH 9.0
O=C(O)C[C@H](O)C(=O)O = details: pH 9.0
[2] = tested on: NC(=O)C1=CN([C@@H]2O[C@H](COP(=O)(O)OP(=O)(O)OC[C@H]3O[C@@H](n4cnc5c(N)ncnc54)[C@H](O)[C@@H]3O)[C@@H](O)[C@H]2O)C=CC1; details: pH 9.0; varied: cofactor

NAD+-dependent malate dehydrogenase (MDH; His6-MDH) (Mycobacterium tuberculosis H37Rv)
Km [1]: 130 µM | kcat/Km [1]: 2.46e+06 M⁻¹ s⁻¹ | Km (O=C(O)CC(=O)C(=O)O): 140 µM | kcat/Km (O=C(O)CC(=O)C(=O)O): 1.74e+07 M⁻¹ s⁻¹ | Km (O=C(O)C[C@H](O)C(=O)O): 1040 µM | kcat/Km (O=C(O)C[C@H](O)C(=O)O): 290000 M⁻¹ s⁻¹ | Km [2]: 80 µM | kcat/Km [2]: 4.16e+07 M⁻¹ s⁻¹
